Test results: PMC11680393 (Viruses, 2024)

Experiments:
[1] = tested on: RSV A2; experiment: CPE assay, RSV A2 in HEp-2 cells (resazurin); assay type: cell-based, respiratory syncytial virus; details: read-out: RSV A IC50, RSV A2 0.2 MOI, 5 days
[2] = tested on: HEp-2 cells; experiment: Cell viability in HEp-2 cells (resazurin); assay type: cell-based, Human; details: read-out: Cytotoxicity CC50, 5 or 6 days
[3] = tested on: RSV A2; experiment: RSV F-protein cell-based ELISA on RSV A2-infected BEAS-2B cells; parameters: species or system respiratory syncytial virus; details: read-out: F-Protein [BEAS2B] IC50; RSV A2 MOI 0.01, day 3 post-infection, compound applied just after infection, no washout
[4] = tested on: RSV B Washington (WST); experiment: CPE assay, RSV B Washington (WST) in HEp-2 cells (resazurin); assay type: cell-based, respiratory syncytial virus; details: read-out: RSV B IC50, RSVB WST 0.2 MOI, 6 days

SMILES: O=C(NC1CC1)c1cc2c(s1)-c1ccccc1N(C(=O)c1ccc(NC(=O)c3cccnc3N3CCC4(CC3)COC4)cc1)CC2
- IC50 [1]: 0.0264 µM
- CC50 [2]: > 15.8 µM
- IC50 [3]: 0.0032 µM
- IC50 [4]: > 1.58 µM
